Values quoted from earlier work, collected in patent US6991818B2, “Compound iso-squamocin obtained from seeds of annona squamosa and composition containing the same” (Council of Scientific & Industrial Research, priority 2001, dated 2006).

Test system: yellow fever mosquito Aedes aegyptii
Settings: cited from earlier work

asimicin/squamocin-H
LC 50: 2.7 mg/lit^−1
